Structures were worked out from names or drawings and are uncertain.

Sequences of proteins named here, by UniProt entry; tags and fusion partners are left off. Residues count along the entry.
UniProt Q8I6U4, 244-484 limits assumed: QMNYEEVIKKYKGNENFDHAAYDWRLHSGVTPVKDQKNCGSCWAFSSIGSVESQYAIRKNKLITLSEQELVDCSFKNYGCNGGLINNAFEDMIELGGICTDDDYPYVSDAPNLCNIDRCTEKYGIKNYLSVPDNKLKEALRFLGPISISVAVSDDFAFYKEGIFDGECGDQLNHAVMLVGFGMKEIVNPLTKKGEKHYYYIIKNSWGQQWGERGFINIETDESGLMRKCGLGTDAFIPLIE

Broadly, the IC50 is the concentration that inhibits the measured activity by half. High values mean a need for much substance, low ones inhibition by little substance.

One experiment concerns the target FP2 (Plasmodium falciparum, UniProt Q8I6U4).
The test system of the next experiment is CASPASE-2. As to conditions: ref previous HTS campaigns performed at the SMDC; cited from earlier work.
A further experiment has as its system CASPASE-6. As to conditions: ref previous HTS campaigns performed at the SMDC; cited from earlier work.
The test system of another experiment is P. falciparum. Briefly: Standard 72 h parasite replication assay. As to conditions: 72h replication assay.

For `N#Cc1c(C(F)(F)F)cc(-c2cccs2)nc1SCC(=O)N1CCOCC1` [compound 97214], on FP2, the IC50 amounted to 0.25 µM. In addition, the “CASPASE-2 %Inhibition @ 10 uM” value with CASPASE-2 was -12%. In addition, the “CASPASE-6 %Inhibition @ 10 uM” value with CASPASE-6 was -2.46%. In addition, the “Pf % Inh @ 100 μM” value with P. falciparum was “N.D. 32 (4) %”.
Regarding `O=C(c1cccnc1)c1conc1C(=O)c1ccc(Br)cc1` [compound 112054], the IC50 on FP2 stood at 0.95 µM. In addition, in the experiment on CASPASE-2, the “CASPASE-2 %Inhibition @ 10 uM” value is given as -3%. Besides, the “CASPASE-6 %Inhibition @ 10 uM” value in the experiment with CASPASE-6 was -3.25%.

(Values after PMC6919601, “Identification of Plasmodium dipeptidyl aminopeptidase allosteric inhibitors by high throughput screening” (PLoS ONE, 2019).)
